The source of these data is patent US12643899B2, “Antiviral agents, uses thereof and methods for their preparation” (The University of British Columbia, priority 2020, dated 2026).

The index is printed as in the source, without its formula.

For the data set, the system named is ZIKV. Kind of data set: Secreted NS1 (sNS1) ELISA, ZIKV-infected A549 cells. The class given is cell-based, Zika virus. The settings on record: therapeutic index from the ELISA (sNS1) IC50, A549 cells. As to the method:
Error bars represent SD among 2 biological replicates.
Cultured A549 cells were treated with various concentrations of CA or PF-429242 for 24 h before being washed with PBS and inoculated with ZIKV (ZIKV strain VR 1843, Puerto Rico, 2015; ATCC) at MOI 1.0 for 1 h. Following the removal of the inoculum, cells were incubated in fresh media for 2 d before the supernatant was collected, clarified, and secreted NS1 protein abundance was measured by an ELISA kit (BioFront Technologies) according to the manufacturer's instructions. Curve fitting was performed in Igor Pro (WaveMetrics) using a hyperbolic fit algorithm (FIG. 4; upper and middle plots) and IC50 and TI values obtained. IC50 and TI values were also obtained for CA via plaque assay (PFU; FIG. 4, lower plot). FIG. 4 (upper plot) is an ED50 curve for the PF inhibitor based on the detection of secreted Non-Structural protein 1 (sNS1), secreted viral biomarker. sNS1 was detected using an Elisa test (commercially available). FIG. 4 (middle plot) is an ED50 curve for CA based on the detection of secreted Non-Structural protein 1 (sNS1), secreted viral biomarker. sNS1 was detected using an Elisa test (commercially available).
Background: An ELISA detects its analyte on a solid surface through an enzyme-linked reagent.

Compound `CCN(CC)Cc1ccc(C(=O)N(CCc2ccccc2OC)[C@@H]2CCNC2)cc1` [PF, PF-429242, reference compound] came in with a TI of 5.5.

Regarding `COc1c2n(c3ccccc13)[C@]1(O)C(=O)N(C)C(=O)[C@]1(O)c1c-2[nH]c2ccc(Cl)cc12` [CA, (11S,15R)-7-chloro-11,15-dihydroxy-23-methoxy-13-methyl-3,13,16-triazahexacyclo[14.7.0.0^2,10.0^4,9.0^11,15.0^17,22]tricosa-1(23),2(10),4(9),5,7,17,19,21-octaene-12,14-dione], the TI is on record as 675.
